A mixed list of measured activities; the numbers were collected in NIAID ChemDB.

Common to all: growth or infection tests; organism: Herpes simplex virus 1

Neighbouring rows are from separate reports. ECn is the concentration giving n% inhibition of infection, replication or growth. An empty or dashed field is not shown.

| structure | changes | read-out | strain | setting | method | cells | result |
|---|---|---|---|---|---|---|---|
| Cc1cn([C@H]2C[C@H](O)[C@@H](CO)O2)c(=S)[nH]c1=O |  | EC50 | TK- |  | plaque count | MRC-5 | >388 µM |
| Nc1nc2c(ccn2[C@H]2CO[C@@H](CO)C2)c(=O)[nH]1 |  | EC50 | VMW1837 (TK-) |  | cytopathic effect | E6SM | 300 µg/mL |
| Nc1nc2c(ncn2COC(CO)CO)c(=O)[nH]1 |  | EC50 |  |  | cytopathic effect | VERO | <0.003 µg/mL |
| O=C(O)C(O[C@@H]1C=C[C@H](n2cc(F)c(=O)[nH]c2=O)C1)P(=O)(O)O | TK-deficient acyclovir-resistant | EC50 | KOS |  | cytopathic effect | HEL | >250 µM |
| CCOCn1ccc(N)nc1=O |  | EC50 |  |  | plaque count |  | >100 µM |
| O=c1[nH]c(=O)n([C@H]2C[C@H](O)[C@@H](CO)O2)cc1I |  | MIC | CUT |  |  |  | 0.5 µg/mL |
| Cc1cn([C@@H]2O[C@H](CO)[C@H]2CO)c(=O)[nH]c1=O |  | EC50 | DM2.1 (TK-) |  | plaque count | HFF | 92 µg/mL |
| O=C1C(=O)N([C@@H]2O[C@H](COCc3ccccc3)[C@@H](OCc3ccccc3)[C@H]2OCc2ccccc2)c2ccc(F)cc21 |  | EC50 |  |  | virus yield | VERO | >50 µM |
| c1cc(C23CC4CC(CC(C4)C2)C3)[nH]n1 |  | EC50 | 1C |  |  | Chick embryo fibroblasts | 8.29 µg/mL |
| Cc1csc(Nc2nccc(-c3c(-c4ccc(F)cc4)nn4c(NC5CCCC5)ncnc34)n2)n1 |  | EC50 |  |  | hybridisation |  | >40 µM |
| Cc1ccc2c(c1)C(=O)C(=O)N2[C@@H]1O[C@H](COCc2ccccc2)[C@@H](OCc2ccccc2)[C@H]1OCc1ccccc1 |  | EC50 |  |  | virus yield | VERO | >50 µM |
| O=C(O)P(=O)(O)O |  | EC50 | HU-3 |  | cytopathic effect | HEL | 150 µM |
| O=c1[nH]c(=O)n([C@@H]2O[C@H](CO)[C@@H](O)[C@@H]2F)cc1I |  | EC50 |  |  | cytopathic effect | HEP-2 | <0.01 µg/mL |
| C=Cc1c(C)c2cc3nc(c(C(=O)O)c4nc(cc5[nH]c(cc1[nH]2)c(C)c5CC)C(C)=C4C(=O)O)[C@@H](CCC(=O)O)[C@@H]3C |  | EC50 |  | 1% FBS | plaque count | VERO | 20.93 µM |
| Cc1cc([C@@H]2C[C@H](O)[C@@H](CO)O2)c(F)cc1F |  | EC50 | KOS/ACV-R |  | cytopathic effect | E6SM | >400 µg/mL |
| Nc1nc(=O)c(/C=C/Br)cn1[C@H]1C[C@H](O)[C@@H](CO)O1 |  | EC50 | McIntyre |  | cytopathic effect | PRK | 70 µg/mL |
| Nc1ccn([C@@H]2O[C@H](CO)[C@@H](O)[C@H]2O)c(=S)n1 |  | EC50 | KOS |  | plaque count | RPMI8226 | >386 µM |
| O=c1[nH]c(=O)n([C@H]2C[C@H](O)[C@@H](CO)O2)cc1/C=C/Br |  | EC50 | B2006 (TK-) |  | cytopathic effect | HEL | >601 µM |
| O=c1[nH]c(=O)n([C@H]2C[C@H](O)[C@@H](CO)O2)cc1/C=C/Br |  | EC50 | B2006 (TK-) |  | cytopathic effect | PRK | 300 µg/mL |
| C=C1[C@H](CO)[C@@H](O)C[C@@H]1n1cnc2c(=O)[nH]c(N)nc21 |  | EC50 |  |  | plaque count | WI-38 | 3 µM |
| Cc1cc([C@@H]2C[C@H](O)[C@@H](CO)O2)c(Cl)cc1F |  | EC50 | McIntyre |  | cytopathic effect | E6SM | >400 µg/mL |
| Nc1ccn(N2C[C@H](CO)[C@H]2CO)c(=O)n1 |  | EC50 |  |  | cytopathic effect | VERO | >100 µg/mL |
| Nc1nc2c(ncn2COC2COP(=O)(O)OC2)c(=O)[nH]1 |  | EC50 | PFA |  | plaque count | MRC-5 | 18 µM |
| CC(=O)O[C@H]1[C@@H](OC(C)=O)[C@@H](CO[Si](c2ccccc2)(c2ccccc2)C(C)(C)C)O[C@@H](O[C@H]2[C@H](OC(C)=O)[C@H]3Sc4c(n(C)c(=O)n(C)c4=O)O[C@H]3O[C@@H]2CO[Si](c2ccccc2)(c2ccccc2)C(C)(C)C)[C@@H]1OC(C)=O |  | EC50 |  |  |  | VERO | >100 µM |
| Nc1nc2c(ncn2COCCO)c(=O)[nH]1 |  | EC50 |  |  | cytopathic effect | HEF | 0.1 µM |
| Cc1cn(C2OC[C@H](CO)[C@H]2CO)c(=O)[nH]c1=O |  | EC50 |  |  | cytopathic effect | VERO | >100 µg/mL |
| CC(C)(C)NC(=O)CN(C(=O)[C@H]1CC[C@@]2(C)C3CC=C4C[C@@H](O)CC[C@]4(C)C3CC[C@]12C)c1ccccc1Cl |  | EC50 | B2006 |  | plaque count | Vero cells | 12.8 µM |
| Cn1c2c(c(=O)n(C)c1=O)S[C@H]1[C@@H](O2)O[C@H](CO)[C@@H](O)[C@@H]1O |  | EC90 |  |  |  | VERO | >100 µM |
| O=c1[nH]c(=O)n(C2CC(O)C(CO)O2)cc1-c1ccc(Br)o1 |  | EC50 | KOS |  |  |  | 0.15 µM |
| OC[C@H]1O[C@@H](c2cc(Br)c(F)cc2F)C[C@@H]1O |  | EC50 | KOS/ACV-R |  | cytopathic effect | E6SM | >400 µg/mL |
| O=c1[nH]c(=O)n([C@H]2C[C@H](O)[C@@H](CO)O2)cc1/C=C/Br |  | EC50 |  |  | cytopathic effect | HEP-2 | <0.01 µg/mL |
| O=c1[nH]c(=S)n([C@H]2C[C@H](O)[C@@H](CO)O2)cc1Br |  | EC50 | KOS |  | plaque count | RPMI8226 | 16.2 µM |
| O=c1[nH]c(=O)n(C2CC(O)C(CO)O2)cc1-c1ccno1 |  | EC50 | KOS |  |  |  | 20 µM |
| Nc1nc(=S)n([C@H]2C[C@H](O)[C@@H](CO)O2)cc1Cl |  | EC50 | TK- |  | plaque count | MRC-5 | >362 µM |
| CCCCCCCCCCc1nccn(CCCCO)c1=O |  | EC50 |  |  | cytopathic effect | MRC-5 | >10 µM |
| Nc1ncnc2c1ncn2C[C@@H](CO)OCP(=O)(O)O |  | EC50 | B2006 (TK-) |  | cytopathic effect | ESM | 2 µg/mL |
| COCCNC1=[N+]=CCc2c(-c3ccnc(NC4CCCC4)n3)c(-c3cccc(Cl)c3)nn21 |  | EC50 |  |  | hybridisation |  | 0.3 µM |
| Cn1c2c(c(=O)n(C)c1=O)S[C@@H]1[C@H](O2)O[C@H](COc2ccccc2)[C@@H](OCc2ccccc2)[C@@H]1OCc1ccccc1 |  | EC50 |  |  |  | VERO | >100 µM |
| CCCCCCCC/C=C/CCCCCCCC(=O)OCC(CO)OCn1cnc2c(=O)[nH]c(N)nc21 |  | EC50 | B2006 (TK-) |  | cytopathic effect | HEL | >10 µM |
| O=c1[nH]c(=O)n([C@H]2C[C@H](O)[C@@H](CO)O2)cc1Cl |  | EC50 |  |  | cytopathic effect | Primary rabbit kidney cells | 0.76 µM |
| Cc1cn([C@H]2CC[C@@H](OCC(=O)O)C2)c(=O)[nH]c1=O | TK-deficient acyclovir-resistant | EC50 | KOS |  | cytopathic effect | HEL | >250 µM |
| Cc1cc([C@H]2C[C@H](O)[C@@H](CO)O2)c(Cl)cc1F |  | EC50 | F |  | cytopathic effect | E6SM | >400 µg/mL |
| Nc1nc(=S)n([C@@H]2O[C@H](CO)[C@@H](O)[C@@H]2O)cc1F |  | EC50 | TK- |  | plaque count | MRC-5 | >361 µM |
| Nc1nc2c(ncn2CCC(CO)CO)c(=O)[nH]1 |  | EC50 | 20 clinical isolates |  | plaque count | HEL | 0.6 µg/mL |
| Nc1nc(=S)n([C@@H]2O[C@H](CO)[C@@H](O)[C@@H]2O)cc1Cl |  | EC50 | TK- |  | plaque count | MRC-5 | >341 µM |
| N#Cc1cn([C@H]2C[C@H](O)[C@@H](CO)O2)c(=O)[nH]c1=O |  | EC50 |  |  | cytopathic effect | Human skin fibroblasts | >700 µM |
| OC[C@H]1O[C@H](c2cc(Cl)c(F)cc2F)C[C@@H]1O |  | EC50 | KOS |  | cytopathic effect | E6SM | >400 µg/mL |
| Nc1nc(=S)n([C@H]2C[C@H](O)[C@@H](CO)O2)cc1Br |  | EC50 | TK- |  | plaque count | MRC-5 | >312 µM |
| NC1=NC2C(C=CN2CC(CO)CCO)C(=O)N1 |  | EC50 | F delta305 (TK-) |  | plaque count | VERO | 29 µM |
| Nc1nc2c(ncn2N2CC[C@H](CO)[C@H]2CO)c(=O)[nH]1 |  | EC50 |  |  | cytopathic effect | VERO | >100 µg/mL |
| O=c1[nH]c(=O)n(COCCO)cc1I |  | EC50 |  |  | plaque count |  | >100 µM |
| CC(=O)N[C@H]1C(OCCCCC(=O)NCCCC[C@H](NC(=O)CCCCOC2O[C@H](CO)[C@H](O)[C@H](O)[C@H]2NC(C)=O)C(=O)NCCNP(=O)(O)COCCn2cnc3c(N)ncnc32)O[C@H](CO)[C@H](O)[C@@H]1O |  | EC50 |  |  | cytopathic effect | HepG2 | 0.5 µM |
| CC(C)(C)NC(=O)CN(C(=O)[C@H]1CC[C@@]2(C)C3CC=C4C[C@@H](O)CC[C@]4(C)C3CC[C@]12C)c1ccc(Cl)cc1 |  | EC50 | KOS |  | plaque count | Vero cells | 16 µM |
| OC[C@H]1O[C@H](c2cc(F)c(F)cc2F)C[C@@H]1O |  | EC50 | VMW 1837 |  | cytopathic effect | E6SM | >400 µg/mL |
| Cc1cn(COCCOC(=O)c2ccccc2)c(=O)[nH]c1=O |  | EC50 |  |  | plaque count |  | >100 µM |
| CC(=O)O[C@@H]1[C@@H](OC(C)=O)[C@H](C)O[C@@H]2Oc3c(c(=O)n(C)c(=O)n3C)S[C@@H]21 |  | EC90 |  |  |  | VERO | >100 µM |
| OC[C@H]1O[C@@H](c2cc(F)c(F)cc2F)C[C@@H]1O |  | EC50 | KOS/ACV-R |  | cytopathic effect | E6SM | >400 µg/mL |
| Nc1ncnc2c1ncn2C1C[C@@H](CO)[C@@H](CO)S1 |  | EC50 |  |  | cytopathic effect | VERO | >100 µg/mL |
| Fc1ccc(-c2nn3c(c2-c2ccnc(NC4CCCC4)n2)CC=[N+]=C3N2CCCCC2)cc1 |  | EC50 |  |  | hybridisation |  | 1 µM |
| O=C1Nc2ccc(I)cc2C1=O |  | EC50 |  |  | virus yield | VERO | >50 µM |
| O=c1[nH]c(=O)n([C@H]2C[C@H](O)[C@@H](CO)O2)cc1I |  | EC50 |  |  | cytopathic effect | Primary rabbit kidney cells | 0.57 µM |
| O=C1C(=O)N([C@@H]2O[C@H](COCc3ccccc3)[C@@H](OCc3ccccc3)[C@H]2OCc2ccccc2)c2ccccc21 |  | EC50 |  |  | virus yield | VERO | <50 µM |
| CCCCCCCCCCc1nccnc1OCCCCO |  | EC50 |  |  | cytopathic effect | MRC-5 | >10 µM |
| Nc1nc(=S)n([C@@H]2O[C@H](CO)[C@@H](O)[C@@H]2O)cc1Br |  | EC50 | TK- |  | plaque count | MRC-5 | 29 µM |
| Nc1ncnc2c1ncn2[C@@H]1C[C@H](CO)[C@@H](O)[C@@H]1O |  | EC50 | VR-3 |  | plaque count | HEL | 18 µM |
| Nc1nc(Cl)c2ccn([C@H]3CO[C@@H](CO)C3)c2n1 |  | EC50 | VMW1837 (TK-) |  | cytopathic effect | E6SM | >400 µg/mL |
| Cc1cn([C@@H]2O[C@H](CO)[C@@H](O)[C@@H]2F)c(=O)[nH]c1=O |  | EC50 | McKrae |  | plaque count | VERO | 0.78 µM |

A second listing of 5 rows from above:

structure	changes	read-out	strain	setting	method	cells	result
O=c1[nH]c(=S)n([C@H]2C[C@H](O)[C@@H](CO)O2)cc1Br		EC50	KOS		plaque count	RPMI8226	16.2 µM
O=C1C(=O)N([C@@H]2O[C@H](COCc3ccccc3)[C@@H](OCc3ccccc3)[C@H]2OCc2ccccc2)c2ccc(F)cc21		EC50			virus yield	VERO	>50 µM
Nc1nc2c(ncn2COC2COP(=O)(O)OC2)c(=O)[nH]1		EC50	PFA		plaque count	MRC-5	18 µM
NC1=NC2C(C=CN2CC(CO)CCO)C(=O)N1		EC50	F delta305 (TK-)		plaque count	VERO	29 µM
Nc1nc2c(ccn2[C@H]2CO[C@@H](CO)C2)c(=O)[nH]1		EC50	VMW1837 (TK-)		cytopathic effect	E6SM	300 µg/mL